This is a selection; strong and weak results do not stand in their true shares. Activity calls are given as the source filed them. Rule as the data show it: active = fluorescence intensity above about 16000; inconclusive = no clear call, values can overlap the other calls; inactive = below that.

This assay is described as follows: compound fluorescence in toxin protease inhibitor counterscreen, primary screen, artefact control for toxin protease inhibitor project, biochemical, multiplex microsphere, HTS (AID 624483). Also: test concentration not given here. To be noted: compound autofluorescence counterscreen, microsphere flow cytometry; hits give high values.
With `O=[N+]([O-])c1cc([N+](=O)[O-])c(NCC2CCS(=O)(=O)C2)c([N+](=O)[O-])c1` (configuration not stated), the fluorescence intensity was inactive: 2060.
For `Cc1cc(-c2cccc3ccccc23)c(C)cn1.O=[N+]([O-])c1cc([N+](=O)[O-])c(O)c([N+](=O)[O-])c1`, the fluorescence intensity is inactive: 3410.
With `O=[As](O)(c1ccccc1)c1ccc(O)cc1`, the fluorescence intensity is inactive: 3180.
For `O=[N+]([O-])c1ccc(O)c(/C=N/Nc2ccc([N+](=O)[O-])cc2[N+](=O)[O-])c1`, the fluorescence intensity was inactive: 3760.
As for `O=[N+]([O-])c1ncn(CCn2cnc([N+](=O)[O-])n2)n1`, the fluorescence intensity was inactive: 3500.
For `CC(=O)NC(SC(=S)N(C)C)C(Cl)(Cl)Cl` (configuration not stated), the fluorescence intensity is inactive: 1920.
Turning to `O=[N+]([O-])c1ccc(OP2(=O)COCCO2)cc1` (configuration not stated), the fluorescence intensity is inactive: 3600.
The figure for `CP(=O)(OC12CC3CC(CC(C3)C1)C2)OC12CC3CC(CC(C3)C1)C2` is active: 20700; for `O=C(Nc1cc([As](=O)(O)O)ccc1O)c1ccccc1` it is inactive: 3900.
As to `CCOC(=O)c1ccc(NP(C)(=O)Oc2ccc(Cl)cc2)cc1` (configuration not stated), the fluorescence intensity is inactive: 9010.
The value for `O=P1(N(CCCl)CCCl)OCCCS1` (configuration not stated) was inactive: 4040.
For the compound `O=C(O)CNc1ccc([As](=O)(O)O)cc1`, the fluorescence intensity was inactive: 3970.
`COC(=O)C1(C)COP(=O)(Nc2ccccc2)OC1` (configuration not stated): the fluorescence intensity is inactive: 4110.
For `O=[N+]([O-])c1cccc(NC2=NCC(CBr)S2)c1` (configuration not stated), the fluorescence intensity was inactive: 3280.
Take `O=[N+]([O-])c1ncn(CCn2ncnc2[N+](=O)[O-])n1`: the fluorescence intensity is inactive: 4670.
For the compound `CC(C)(C)C(=O)NC(Sc1ccncn1)C(Cl)(Cl)Cl` (configuration not stated), the fluorescence intensity was inactive: 4450.
`CCc1ccc(OP(C)(=O)Nc2cccnc2)cc1` (configuration not stated): the fluorescence intensity was inactive: 4670.
The figure for `O=[N+]([O-])c1cc([N+](=O)[O-])c(CCNc2ccccc2)c([N+](=O)[O-])c1` is inactive: 4300.
As to `CP(=O)(Oc1ccccc1)N1CCOC1=O` (configuration not stated), the fluorescence intensity is inactive: 5370.
As for `Cc1ccc(NP(=O)(Oc2ccccc2)Oc2ccccc2)nc1`, the fluorescence intensity is inactive: 4520.
As for `O=C(OCCCN1CCCC1)C(O)(c1ccccc1)C1CCCCC1` (configuration not stated), the fluorescence intensity is inactive: 3970.
The value for `O=[N+]([O-])c1cccc2n[nH]nc12` was inactive: 4740; that for `CC(=O)N1C2C3N(C(C)=O)C1C1N(C(C)=O)C(C(N1C(C)=O)N3C(C)=O)N2C(C)=O` was inactive: 3070; that for `COc1ccccc1OP(C)(=O)Nc1c(C)n(C)n(-c2ccccc2)c1=O` (configuration not stated) was inactive: 2860.
As to `COc1ccc(OP(C)(=O)Nc2ccc(Br)cc2)cc1` (configuration not stated), the fluorescence intensity was inactive: 9590.
On to `COc1ccc(C2=NCC(CBr)S2)cc1` (configuration not stated), for which the fluorescence intensity is inactive: 4420.
For `CCN(CC)CC(O)COC(=O)C(O)(c1ccccc1)C1CCCCC1` (configuration not stated), the fluorescence intensity is inactive: 3700.
In the case of `CC1CCN(C(=O)Oc2c(Cl)cc(Cl)c3cccnc23)CC1`, the fluorescence intensity is inactive: 3200.
The value for `c1cc(-c2nn[nH]n2)ccc1-c1nn[nH]n1` was inactive: 3830; that for `CN(C)C(=O)OCCc1n(C)cc[n+]1C` was inactive: 2260.
With `CC(C)c1nc(Nc2ccccc2)n(P(=O)(N(C)C)N(C)C)n1`, the fluorescence intensity was inactive: 2800.
On to `CN(C)C(=O)c1c([N+](=O)[O-])cc([N+](=O)[O-])cc1[N+](=O)[O-]`, for which the fluorescence intensity was inactive: 5200.
In the case of `CC(C)=N/N=C(\N)N[N+](=O)[O-]`, the fluorescence intensity was inactive: 2640.
Turning to `CP(=O)(Nc1ccc(Cl)cc1)Oc1ccc(F)cc1` (configuration not stated), the fluorescence intensity is inactive: 12700.
For `CCN(/C(=N/P(=O)(N1CCOCC1)N1CCOCC1)N1CCOCC1)c1ccc(OC)cc1`, the fluorescence intensity was inactive: 2380.
Consider `C[N+]1=C2C=CC=CC=C2SC12C([N+](=O)[O-])=CC([N+](=O)[O-])=C[C-]2[N+](=O)[O-]` (configuration not stated), for which the fluorescence intensity was inactive: 3240.
For the compound `COc1ccccc1OP(C)(=O)Nc1ccccc1Br` (configuration not stated), the fluorescence intensity is inactive: 4250.
The figure for `CC(C)(C)c1ccc(OP(C)(=O)O)cc1` is active: 22200; for `Nc1ccc([As](=O)(O)c2ccc(N)cc2)cc1` it is inactive: 3380.
The value for `CN1CCCC(OC(=O)C(c2ccccc2)c2ccccc2)C1` (configuration not stated) was inactive: 4300; that for `Clc1ccc(Cl)c(NC2=NCC(CBr)S2)c1` (configuration not stated) was inactive: 4090.
The value for `CN(C)CCOC(=O)C(O)(c1ccccc1)C1CCCC1` (configuration not stated) was inactive: 10400.
Turning to `Cc1ccc(OP(=O)(Nc2nccs2)Oc2ccc(C)cc2)cc1`, the fluorescence intensity was inactive: 3400.
`COc1ccccc1OP(=O)(Nc1ccc(C)cn1)Oc1ccccc1OC`: the fluorescence intensity was inactive: 2050.
Regarding `COc1ccc(OP(C)(=O)Nc2ccccn2)cc1` (configuration not stated), the fluorescence intensity was inactive: 9160.
As for `Cc1ccc(N/C(=N/P(=O)(N2CCOCC2)N2CCOCC2)N2CCOCC2)cc1`, the fluorescence intensity was inactive: 4210.
For the compound `CN(C(=O)Cc1ccc(Cl)c(Cl)c1)[C@H]1CCCC[C@H]1N1CCCC1`, the fluorescence intensity is inactive: 6450.
For `COc1ccccc1OP(C)(=O)Nc1ccc(Br)cc1` (configuration not stated), the fluorescence intensity was inactive: 4710.
The figure for `NC(=O)c1cc([N+](=O)[O-])cc([N+](=O)[O-])c1N` is inactive: 4230; for `CCc1ccc(OP(C)(=O)O)cc1` it is inactive: 2380; for `O=[N+]([O-])C1C(O)C(O)C([N+](=O)[O-])C(O)C1O` (configuration not stated) it is inactive: 6380.
Take `COc1ccccc1OP(C)(=O)Nc1ccc(C)cc1C` (configuration not stated): the fluorescence intensity was inactive: 6630.
As to `CP(=O)(Nc1ccccn1)Oc1ccccc1` (configuration not stated), the fluorescence intensity is inactive: 3560.
In the case of `O=C(NC(Sc1ccncn1)C(Cl)(Cl)Cl)c1ccccc1` (configuration not stated), the fluorescence intensity is inactive: 10800.
Turning to `Oc1ccccc1CNc1ccccn1`, the fluorescence intensity was inactive: 4410.
The figure for `Cc1c(NP(C)(=O)Oc2ccc(C(C)C)cc2)c(=O)n(-c2ccccc2)n1C` (configuration not stated) is inactive: 4260.
Regarding `Nc1cc(N)c2nonc2c1[N+](=O)[O-]`, the fluorescence intensity was inactive: 4480.
With `CC(C)CC(=O)NC(Sc1ccc(Cl)cc1)C(Cl)(Cl)Cl` (configuration not stated), the fluorescence intensity was inactive: 8060.
On to `O=[N+]([O-])c1cc([N+](=O)[O-])c(Nc2ccccn2)c([N+](=O)[O-])c1`, for which the fluorescence intensity is inactive: 4250.
On to `COc1ccc(OP(C)(=O)Nc2ccccc2Br)cc1` (configuration not stated), for which the fluorescence intensity is inactive: 2070.
For `COc1ccccc1OP(C)(=O)Nc1ccc(C)c(C)c1` (configuration not stated), the fluorescence intensity is inactive: 3320.
With `Cc1ccc(NP(=O)(Oc2ccccc2F)Oc2ccccc2F)nc1`, the fluorescence intensity was inactive: 6090.
As to `CN(C(=O)Cc1ccc(Cl)c(Cl)c1)[C@H]1CCCC[C@@H]1N1CCCC1`, the fluorescence intensity is inactive: 6420.
Turning to `Cc1cc(SC(NC(=O)c2ccc(F)cc2)C(Cl)(Cl)Cl)ncn1` (configuration not stated), the fluorescence intensity was inactive: 2340.
`CCOP(=O)(Nc1ccccc1)OCC`: the fluorescence intensity is inactive: 3630.
Turning to `O=P(Nc1nc2ccc(Cl)cc2s1)(c1ccccc1)c1ccccc1`, the fluorescence intensity was inactive: 6080.
The value for `Cc1cc(C)cc(OP(C)(=O)Nc2cccc(C(F)(F)F)c2)c1` (configuration not stated) was inactive: 3560; that for `CN(C)P(=O)(N(C)C)n1c(Nc2ccccc2)nnc1-c1ccccc1` was inactive: 3570.
`O=C1C(O)=C([N+](=O)[O-])C(=O)C(O)=C1[N+](=O)[O-]`: the fluorescence intensity is inactive: 3560.
Take `CCCC1OP(N)(=O)OCC1CC` (configuration not stated): the fluorescence intensity was inactive: 3890.
Regarding `CC(=O)Nc1ccc([As](=O)(O)O)cc1`, the fluorescence intensity was inactive: 3950.
The value for `O=C(O)c1ccccc1[As](=O)(O)O` was inactive: 3370; that for `CCCCCCCCCCCCCCCC1C[N+](C)(C)CCOP(C)(=O)O1` (configuration not stated) was inactive: 3060.
Turning to `CP(=O)(Nc1ccc(Cl)cc1Cl)Oc1ccccc1` (configuration not stated), the fluorescence intensity is inactive: 3520.
As for `CP(=O)(OCCOc1ccccc1)OCCOc1ccccc1`, the fluorescence intensity was inactive: 3420.
For the compound `Nc1cccc2ccc([As](=O)(O)O)cc12`, the fluorescence intensity is inactive: 3830.
The figure for `CCN(N=Nc1nonc1N)c1nonc1N` is inactive: 9520.

Source of the values: PubChem BioAssay AID624483 (NMMLSC, 2012).
